Results of unrelated studies side by side (data: NIAID ChemDB).

Shared fields: growth or infection tests; organism: HIV-1; cells: CEM + CEM-SS; endpoint: EC50

An empty or dashed field is not shown. Lines come from different laboratories, so protocols vary. ECn is the concentration giving n% inhibition of infection, replication or growth.

SMILES	strain or isolate	changes	read by	result
Cc1cn(COCCOc2ccc(Cl)cc2)c(=O)[nH]c1=O	-	-	cytopathic effect	50.9 µM
C[C@H](CCC(=O)NC(CO)CS(=O)(=O)O)[C@H]1[C@@H](O)[C@H](O)C2C3C[C@@H](O)[C@@]4(O)C[C@@H](O)CC[C@]4(C)C3CC[C@@]21C	RF	-	cytopathic effect / XTT	>100 µM
Cn1cc(NC(=O)Nc2cc(C(=O)Nc3cc(C(=O)Nc4ccc(P(=O)(O)O)c5cc(P(=O)(O)O)ccc45)n(C)c3)n(C)c2)cc1C(=O)Nc1cc(C(=O)Nc2ccc(P(=O)(O)O)c3cc(P(=O)(O)O)ccc23)n(C)c1	G762-3	-	cytopathic effect / XTT	0.1 µM
Cc1ccc(C=C(C(=O)O)C(=O)O)o1	RF	-	cytopathic effect / XTT	141 µM
CC(C)C(CCOS(=O)(=O)O)CC[C@@H](C)[C@H]1[C@@H](O)[C@H](O)[C@@H]2[C@]1(C)CC[C@H]1[C@@]2(O)C[C@@H](O)[C@@]2(O)C[C@@H](O)CC[C@]12C	RF	-	cytopathic effect / XTT	>100 µM
COc1cccc(/C=C/C(=O)c2ccccc2)c1O	RF	-	cytopathic effect / XTT	23 µM
CC#CCN1c2ccccc2C(=O)N(Cc2ccccc2)S1(=O)=O	IIIB	-	p24	>10 µM
Oc1[nH]c(=S)[nH]c1/C=C1\C(c2ccccc2)=Nc2ccccc21	RF	-	cytopathic effect / XTT	>20 µM
COc1cc(C)cc2c(-c3c(O)cc(O)c4c(C)nc(C)cc34)cc(-c3cc(-c4c(O)cc(O)c5c(C)nc(C)cc45)c4cc(C)cc(OC)c4c3O)c(O)c12	RF	-	-	29 µM
CCN(CC)C(=S)S	RF	-	cytopathic effect / XTT	>100 µM
COc1cc(-c2ccc(N=Nc3ccc4c(S(=O)(=O)O)cc(S(=O)(=O)O)c(N)c4c3O)c(OC)c2)ccc1N=Nc1ccc2c(S(=O)(=O)O)cc(S(=O)(=O)O)c(N)c2c1O	IIIB	-	cytopathic effect / XTT	0.6 µM
CN1N=C(N)c2cn(C3C=CC(CO)O3)c3ncnc1c23	IIIB	-	RT activity	100 µM
CC(C)=CCOc1cc(NC(=S)c2ccsc2C)ccc1Cl	NL4-3	RT-V108I	p24	0.006 µM
Cc1cn([C@@H]2CO[C@H](CO)[C@H]2CO)c(=O)[nH]c1=O	RF	-	cytopathic effect / XTT	0.8 µM
C/C=C(\C)C(=O)c1c(O)c2c(c3c(-c4ccccc4)cc(=O)oc13)OC(C)(C)C=C2	RF	-	cytopathic effect	4 µg/mL
CSc1nc2c(c(N(C)C)n1)C=Nn1c(nc3ccccc31)S2	OC(RT-L100I)	RT-L100I	cytopathic effect / XTT	0.14 µM
O=C(Nc1ccccc1S)c1ccccc1	RF	-	cytopathic effect / XTT	3 µM
Cn1cc(NC(=O)Nc2cc(C(=O)Nc3cc(C(=O)Nc4cc(S(=O)(=O)O)c5cc(S(=O)(=O)O)cc(S(=O)(=O)O)c5c4)n(C)c3)n(C)c2)cc1C(=O)Nc1cc(C(=O)Nc2cc(S(=O)(=O)O)c3cc(S(=O)(=O)O)cc(S(=O)(=O)O)c3c2)n(C)c1	IIIB	-	cytopathic effect / XTT	3.2 µM
Cc1ccc(OCCOCn2c(C)cc(=O)[nH]c2=O)cc1	-	-	cytopathic effect	>100 µM
Cc1cn(CCO[C@H]2C=C[C@@H](CO)O2)c(=O)[nH]c1=O	LAI	-	RT activity	27 µg/mL
CCCN1CC[C@H](O)[C@@H](O)C1	BRU	-	cytopathic effect	>100 µg/mL
CC(C)=CCN1CCc2c[nH]c(=S)n2CC1	LAI	-	RT activity	>100 µM
Cn1cc(NC(=O)Nc2cc(C(=O)Nc3cc(C(=O)Nc4ccc(S(=O)(=O)O)c5cc(S(=O)(=O)O)cc(S(=O)(=O)O)c45)n(C)c3)n(C)c2)cc1C(=O)Nc1cc(C(=O)Nc2ccc(S(=O)(=O)O)c3cc(S(=O)(=O)O)cc(S(=O)(=O)O)c23)n(C)c1	RF	-	cytopathic effect / XTT	31.6 µM
CCc1c(C)n(COCCOc2ccc(C)cc2)c(=O)[nH]c1=O	-	-	cytopathic effect	>100 µM
CC(c1ccccc1)N1CC[C@H](O)[C@@H](O)C1	BRU	-	cytopathic effect	>100 µg/mL
CC(C)CC[C@@H](O)[C@@H](C)[C@H]1CCC2C3C[C@H](OS(=O)(=O)O)C4C[C@@H](OS(=O)(=O)O)CC[C@]4(C)C3=CC[C@@]21C	RF	-	RT activity	80 µM
COc1ccc(-c2cc(=O)c3c(C)cc(O)cc3o2)cc1	RF	-	cytopathic effect / XTT	67 µM
Cn1nc(NC(=O)c2cc(N)nn2C)cc1C(=O)Nc1ccc2cc(S(=O)(=O)O)cc(S(=O)(=O)O)c2c1	RF	-	cytopathic effect / XTT	>200 µM
C=C1C(=O)[C@@]23CC[C@H]4[C@@](C)(CCC[C@@]4(C)C(=O)O)[C@@H]2CC[C@@H]1C3	RF	-	cytopathic effect / XTT	0.5 µg/mL
CCN(CC)C(=S)SSC(=S)N(CC)CC	RF	-	cytopathic effect / XTT	>3.9 µM
CC(C)[C@H](CC[C@@H](C)[C@H]1C[C@H](OS(=O)(=O)O)[C@H]2[C@@H]3C[C@H](O)[C@H]4C[C@@H](O)CC[C@]4(C)[C@H]3CC[C@@]21C)OC1OC[C@@H](O)[C@H](O)[C@@H]1O	RF	-	cytopathic effect / XTT	>100 µM
C[C@]1(O)CN(Cc2ccccc2)CC[C@@H]1O	BRU	-	cytopathic effect	>100 µg/mL
Cn1cc(NC(=O)Nc2cc(C(=O)Nc3cc(C(=O)Nc4ccc(S(=O)(=O)O)c5cccc(S(=O)(=O)O)c45)n(C)c3)n(C)c2)cc1C(=O)Nc1cc(C(=O)Nc2ccc(S(=O)(=O)O)c3cccc(S(=O)(=O)O)c23)n(C)c1	RF	-	cytopathic effect / XTT	>200 µM
O=c1[nH]c(=O)n(COCCOc2ccc(Cl)cc2)cc1Br	-	-	cytopathic effect	>100 µM
OCCN1CC[C@H](O)[C@@H](O)C1	BRU	-	cytopathic effect	12 µg/mL
O=C1c2ccccc2N(Cc2cccc3ccccc23)S(=O)(=O)N1Cc1ccccc1	IIIB	-	p24	>10 µM
COc1cc(C)c(-c2ccc(O)c3c2C[C@@H](C)N[C@@H]3C)c2ccc(-c3ccc4c(-c5ccc(O)c6c5C[C@@H](C)N[C@@H]6C)c(C)cc(OC)c4c3O)c(O)c12	RF	-	cytopathic effect / XTT	27 µg/mL
CCOC(=O)c1c(N)ssc1=S	RF	-	cytopathic effect / XTT	72 µM
O[C@H]1CN(Cc2ccccc2)CC[C@@]1(O)c1ccccc1	BRU	-	cytopathic effect	160 µg/mL